{
  "source": "paper PMC4627656",
  "about": "“Combining Metabolite-Based Pharmacophores with Bayesian Machine Learning Models for Mycobacterium tuberculosis Drug Discovery” (PLoS ONE, 2015)",
  "note": "Values joined by “and” are separate entries in the source; they are usually repeats but may differ in a detail not shown here. Equal entries are not always repeated.",
  "data": [
    {"test_system": "Vero cells", "conditions": "Vero CC50 / Mtb MIC", "values": [
      {"smiles": "CC(=O)c1c(C)[n+]([O-])c2ccc(Cl)cc2[n+]1[O-]", "note": "[SRI4]", "SI = CC50/MIC": "> 8"},
      {"smiles": "Cc1c(C(=O)c2cccnc2)[n+]([O-])c2cc(Cl)c(Cl)cc2[n+]1[O-]", "note": "[SRI55]", "SI = CC50/MIC": "> 16"},
      {"smiles": "CC(C)=CCCC(=O)c1c(C)[n+]([O-])c2cc(Cl)c(Cl)cc2[n+]1[O-]", "note": "[SRI57]", "SI = CC50/MIC": "> 32 and > 33.33"},
      {"smiles": "Cc1c(C(=O)C2CC2)[n+]([O-])c2cc(Cl)c(Cl)cc2[n+]1[O-]", "note": "[SRI58]", "SI = CC50/MIC": "> 32 and > 33.33"}
    ]}
  ]
}
